Results of unrelated studies side by side (data: NIAID ChemDB).

Common to all: whole-cell or culture tests; agent: Sindbis virus; cell line: VERO; read-out: EC50

ECn: concentration that inhibits the pathogen or its effect by n%. Neighbouring rows are from separate reports.

compound | read by | value
C[C@H]1C[C@@H](n2cnc3c(N)ncnc32)[C@H](O)[C@@H]1O | cytopathic effect | >100 µg/mL
Cc1cn([C@H]2C[C@@H]3OC[C@H]2[C@@H]3CO)c(=O)[nH]c1=O | cytopathic effect | >400 µg/mL
Nc1nccc2c1ncn2[C@@H]1O[C@H](CO)[C@@H](O)[C@H]1O | cytopathic effect | ≥40 µg/mL
O=c1[nH]cnc2c1ncn2[C@@H]1C=C(CO)[C@@H](O)[C@H]1O | cytopathic effect | >400 µg/mL
Nc1ncnc2c1ccn2[C@@H]1O[C@H](CO)[C@H](O)[C@H]1O | cytopathic effect | ≥40 µg/mL
Nc1nc(Cl)c2ncn(C[C@H]3CC[C@@H](CO)C3)c2n1 | cytopathic effect | >40 µg/mL
Nc1ncnc2c1ncn2[C@H]1[C@H](O)[C@H](O)[C@]2(CO)O[C@H]12 | cytopathic effect | 7 µg/mL
Nc1nccc2c1ncn2[C@@H]1C[C@H](CO)[C@@H](O)[C@H]1O | cytopathic effect | 200 µg/mL
Nc1nccc2c1ncn2[C@@H]1O[C@H](CO)[C@@H](O)[C@H]1O | cytopathic effect | ≥40 µg/mL
Nc1ncnc2c1ncn2C[C@H](O)CO | cytopathic effect | >400 µg/mL
Nc1ncnc2c1ncn2C[C@H](O)CO | cytopathic effect | 150 µg/mL
Nc1nccc2c1ncn2[C@@H]1C[C@H](CO)[C@@H](O)[C@H]1O | cytopathic effect | >100 µg/mL
COc1cc(O)c2c(=O)c3cccc(O)c3n(C)c2c1OC | plaque count | >20 µg/mL
Nc1ncnc2c1ncn2C[C@@H](O)[C@H](O)C(=O)O | cytopathic effect | >400 µg/mL
Nc1nc2c(ncn2C[C@H]2CC[C@@H](CO)C2)c(=O)[nH]1 | cytopathic effect | >200 µg/mL
Nc1ncnc2c1ncn2[C@@H]1C[C@H](CO)[C@@H](O)C1 | cytopathic effect | >100 µg/mL
Nc1ncnc2c1c(Br)cn2[C@@H]1O[C@H](CO)[C@@H](O)[C@H]1O | cytopathic effect | >0.1 µg/mL
Nc1ncnc2c1ncn2[C@@H]1C=C[C@@H](O)[C@H]1O | cytopathic effect | >400 µg/mL
Nc1ncnc2c([C@H]3C[C@H](O)[C@@H](CO)O3)[nH]nc12 | cytopathic effect | 400 µg/mL
O=c1[nH]c(=O)n([C@H]2C[C@H](O)[C@@H](CO)O2)cc1/C=C/Br | cytopathic effect | >400 µg/mL
Cc1cn([C@@H]2CC[C@H](CO)C2)c(=O)[nH]c1=O | cytopathic effect | >400 µg/mL
Nc1nccc2c1ncn2[C@@H]1C[C@H](CO)[C@@H](O)[C@H]1O | cytopathic effect | 40 µg/mL
C/C=C/Cc1cn([C@@H]2O[C@H](CO)[C@@H](O)[C@H]2O)c2ncnc(N)c12 | cytopathic effect | 40 µg/mL
Nc1ncnc2c1ncn2[C@@H]1C=C(CO)[C@@H](O)[C@H]1O | cytopathic effect | 2 µg/mL

The first 3 rows once more:

{"compound": "C[C@H]1C[C@@H](n2cnc3c(N)ncnc32)[C@H](O)[C@@H]1O", "read by": "cytopathic effect", "value": ">100 µg/mL"}
{"compound": "Cc1cn([C@H]2C[C@@H]3OC[C@H]2[C@@H]3CO)c(=O)[nH]c1=O", "read by": "cytopathic effect", "value": ">400 µg/mL"}
{"compound": "Nc1nccc2c1ncn2[C@@H]1O[C@H](CO)[C@@H](O)[C@H]1O", "read by": "cytopathic effect", "value": "≥40 µg/mL"}